Measured values from several laboratories, pooled; numbers as filed in NIAID ChemDB.

All rows: whole-cell or culture tests; agent: Mycobacterium fortuitum; read-out: MIC

Neighbouring rows are from separate reports. a–b is a range or a potency band. Blank or dashed fields: not listed here.

| compound | strain | method | setting | result |
|---|---|---|---|---|
| CNCC1CCN(c2c(F)cc3c(=O)c(C(=O)O)cn(C4CC4)c3c2C(F)(F)F)C1 | ATCC 6841 |  |  | 8 µg/mL |
| O=C1C(=O)N(c2ccccc2)C(=S)N1c1ccccc1 | CA10 |  |  | >100 µg/mL |
| CC1CN(c2c(F)cc3c(=O)c(C(=O)O)cn(C4CC4)c3c2Cl)CC(C)N1 | ATCC 6841 |  |  | 0.13 µg/mL |
| N/C(=N\N=C\c1ccccc1OCc1ccccc1)c1ccccn1 |  |  |  | 25–50 µg/mL |
| CN1CCN(c2c(F)cc3c(=O)c(C(=O)O)cn(CCF)c3c2F)CC1 | 10 strains |  |  | 8 µg/mL |
| Nc1nc(N)c2c(n1)NC(c1ccccc1)CC(c1ccc3c(c1)OCO3)=N2 | MNT1073 | MTT / broth dilution / absorbance | clinical isolate | >32 µg/mL |
| CC1(C)NC(=S)NC1=S | CA10 |  |  | >100 µg/mL |
| NC1CCN(c2nc3c(cc2F)c(=O)c(C(=O)O)cn3-c2ccc(F)cc2F)C1 | ATCC 6841 |  |  | 0.13 µg/mL |
| CCNCC1CCN(c2c(F)cc3c(=O)c(C(=O)O)cn(CC)c3c2F)C1 | 10 strains |  |  | ≤0.5 µg/mL |
| CN1C(=O)C(=O)N(C)C1=S | CA10 |  |  | 25 µg/mL |
| N/C(=N\N=C1CCCCCCCCCCC1)c1ccccn1 |  |  |  | >50 µg/mL |
| CC(C)(C)n1cc(C(=O)O)c(=O)c2cc(F)c(N3CCNCC3)nc21 | ATCC 6841 |  |  | 0.06 µg/mL |
| CCn1cc(C(=O)O)c(=O)c2cc(F)c(N3CCNCC3)cc21 | 10 strains |  |  | 8 µg/mL |
| Nc1nc(N)c2c(n1)NC(c1ccc3c(c1)OCO3)CC(c1ccccc1)=N2 | MNT1073 | MTT / broth dilution / absorbance | clinical isolate | >32 µg/mL |
| CCC(C)(C)c1ccc(/C=N/N=C(\N)c2ccccn2)cc1 |  |  |  | 6–12.5 µg/mL |
| COc1ccc(C2CC(c3ccc4c(c3)OCO4)=Nc3c(N)nc(SC)nc3N2)cc1 | MNT1073 | MTT / broth dilution / absorbance | clinical isolate | >32 µg/mL |
| CN1C(=S)NC(C)(C)C1=S | CA10 |  |  | >100 µg/mL |
| O=C(O)c1cn(C2CC2)c2nc(N3CCNCC3)c(F)cc2c1=O | ATCC 6841 |  |  | 0.13 µg/mL |
| N/C(=N\N=C\c1ccccc1Sc1ccc(Cl)cc1)c1ccccn1 |  |  |  | 12.5–25 µg/mL |
| CCN1CCN(c2nc3c(cc2F)c(=O)c(C(=O)O)cn3C(C)(C)C)CC1 | ATCC 6841 |  |  | 0.13 µg/mL |
| NNC(=O)c1ccc(N)cc1O |  |  |  | ≥1000 µg/mL |

A second listing of 2 rows from above:

| compound | strain | method | setting | result |
|---|---|---|---|---|
| CC1CN(c2c(F)cc3c(=O)c(C(=O)O)cn(C4CC4)c3c2Cl)CC(C)N1 | ATCC 6841 |  |  | 0.13 µg/mL |
| CC1(C)NC(=S)NC1=S | CA10 |  |  | >100 µg/mL |